Pooled drug test results. Numbers come from NIAID ChemDB, via PubChem.

Shared fields: tests in culture; organism: HIV-1; cells: MT-4; endpoint: EC50

Blank or dashed fields: not listed here.

smiles,strain or isolate,changes,read by,conditions,value
O=C(N[C@H]1c2ccccc2OC[C@H]1O)[C@H](Cc1cccnc1)C[C@H](O)CN1CCN(Cc2ccn(-c3cccc(C(F)(F)F)c3)c2)C[C@H]1C(=O)NCC(F)(F)F,NL4-3 WT,-,p24,-,<0.015 µM
Cc1ccc(Cl)cc1-n1nnnc1SCC(=O)Nc1ccccc1[N+](=O)[O-],-,-,p24,50% human serum,<0.25 µM
O=C(CSc1nnnn1-c1cccc(Cl)c1)Nc1ccccc1Cl,-,-,p24,-,<10 µM
O=c1[nH]cnc2c1ncn2[C@H]1CC[C@@H](CO)O1,LZ-05.95,-,cytopathic effect,-,15.7 µM
Cc1cc(C)c(-n2nnnc2SCC(=O)Nc2ccccc2Br)c(C)c1,-,-,p24,-,<10 µM
CC(C)=CCN1Cc2cccc3[nH]c(=S)n(c23)C[C@@H]1C,rA17,-,p24,-,<100 µM
O=C(N[C@H]1c2ccccc2OC[C@H]1O)[C@H](Cc1cccnc1)C[C@H](O)CN1CCN(Cc2ccn(-c3ccc(F)cc3)c2)C[C@H]1C(=O)NCC(F)(F)F,NL4-3 WT,-,p24,-,<0.015 µM
CCc1cc(NCc2nc3c(Cl)ccc(Cl)c3o2)c(=O)[nH]c1C,MN,-,p24,-,0.05 µM
CC(C)(C)NC(=O)[C@@H]1C[C@@H]2CCCC[C@@H]2CN1C[C@@H](O)[C@H](Cc1ccccc1)NC(=O)[C@H](CC(N)=O)NC(=O)c1ccc2ccccc2n1,NL4-3,PR-D30N M46I A71V,p24,-,<0.01 µM
Cc1ccnc2c1NC(=O)c1cccnc1N2C1CC1,-,RT-K103N K100I,cytopathic effect / MTT,-,>10 µM
O=C(CSc1nnnn1-c1cc(F)ccc1Cl)Nc1ccccc1[N+](=O)[O-],-,-,p24,50% human serum,<0.25 µM
Fc1c(F)c(CN2CCCNCCNCCCNCC2)c(F)c(F)c1CN1CCCNCCNCCCNCC1,NL4-3,AMD3100-resistant,cytopathic effect / MTT,-,0.48 µg/mL
CCc1cc(NCc2nc3c(C)ccc(C)c3o2)c(=O)[nH]c1C,IIIB,-,p24,-,<0.025 µM
Cc1cccc(C)c1-n1nnnc1SCC(=O)Nc1ccccc1[N+](=O)[O-],-,-,p24,-,<10 µM
CCN[C@H]1CO[C@@H]2OCC[C@H](OC(=O)N[C@@H](Cc3ccccc3)[C@H](O)CN(CC(C)C)S(=O)(=O)c3ccc4nc(NC5CC5)sc4c3)[C@@H]21,NL4-3,L10F M46I I54V V82A,p24 / luminescence,-,0.0039 µM
Cc1cn([C@H]2C[C@H](N=[N+]=[N-])[C@@H](CO)O2)c(=O)[nH]c1=O,263,-,p24,-,0.02 µM
Cc1cc(C)c(-n2nnnc2SCC(=O)Nc2cc(C)ccc2Cl)c(C)c1,-,-,p24,-,<10 µM
c1ccc(-c2cc(CN3CCCNCCNCCCNCC3)ccc2CN2CCCNCCNCCCNCC2)cc1,NL4-3,AMD3100-resistant,cytopathic effect / MTT,-,12.1 µg/mL
O=C(N[C@H]1c2ccccc2OC[C@H]1O)[C@H](Cc1cccnc1)C[C@H](O)CN1CCN(Cc2ccn(-c3ccc(Cl)c(Cl)c3)c2)C[C@H]1C(=O)NCC(F)(F)F,K-60C Clinical isolate,PR-L10I M46I I54V Q58E L63P I64V V77I V82F I84V L90M I93L,p24,-,<0.031 µM
CC(C)(C)NC(=O)[C@@H]1C[C@@H]2CCCC[C@@H]2CN1C[C@@H](O)[C@H](Cc1ccccc1)NC(=O)[C@H](CC(N)=O)NC(=O)c1ccc2ccccc2n1,HXB2,RT-A62V S68G T69N V75I F77L F116Y Q151M,cytopathic effect,-,>10 µM
CO[P@](=O)(c1cc(C)cc(/C=C/C#N)c1)c1c(C(N)=O)[nH]c2ccc(Cl)cc12,NL4-3,K103N,ELISA,-,0.0015 µM
CC(C)Nc1cccnc1N1CCN(C(=O)c2cc3cc(NS(C)(=O)=O)ccc3[nH]2)CC1,NI-10.93 (HXB2 RT T69N K70R Q151M),RT-T69N K70R Q151M,cytopathic effect,-,0.04 µM
Cc1ccc(-n2ccc(CN3CCN(C[C@@H](O)C[C@@H](Cc4cccnc4)C(=O)N[C@H]4c5ccccc5OC[C@H]4O)[C@H](C(=O)NCC(F)(F)F)C3)c2)cc1,NL4-3 WT,-,p24,-,<0.015 µM
Cc1cc(C)c(-n2nnnc2SCC(=O)Nc2ccc(C(N)=O)cc2C)c(C)c1,-,-,p24,50% human serum,<0.062 µM
Cc1cc(C)c(-n2nnnc2SCC(=O)Nc2ccc(C(N)=O)cc2Cl)c(C)c1,-,-,p24,-,<10 µM
c1ccc2c(CN3CCCNCCNCCCNCC3)cc(CN3CCCNCCNCCCNCC3)cc2c1,NL4-3,AMD3100-resistant,cytopathic effect / MTT,-,>25 µg/mL
COC(=O)N[C@H](C(=O)N[C@@H](Cc1ccccc1)[C@@H](O)CN(Cc1ccc(-c2ccccn2)cc1)NC(=O)[C@@H](NC(=O)OC)C(C)(C)C)C(C)(C)C,NL4-3,L10F K20T D30N K45I A71V V77I,p24 / luminescence,-,19 µM
O=C(N[C@H]1c2ccccc2OC[C@H]1O)[C@H](Cc1cccnc1)C[C@H](O)CN1CCN(Cc2ccn(-c3ccccc3C(F)(F)F)c2)C[C@H]1C(=O)NCC(F)(F)F,NL4-3 WT,-,p24,-,<0.038 µM
CC(C)CN(C[C@@H](O)[C@H](Cc1ccccc1)NC(=O)O[C@H]1CCO[C@H]2OCC[C@H]21)S(=O)(=O)c1ccc2nc(NC3CC3)sc2c1,NL4-3,L10F V32I L33F M46L I54M A71V,p24 / luminescence,-,0.0067 µM
O=C(N[C@H]1c2ccccc2OC[C@H]1O)[C@H](Cc1cccnc1)C[C@H](O)CN1CCN(Cc2ccn(-c3cccc(F)c3)c2)C[C@H]1C(=O)NCC(F)(F)F,NL4-3 WT,-,p24,-,<0.015 µM
O=c1[nH]cnc2c1ncn2[C@H]1CC[C@@H](CO)O1,IIIB,-,p24,-,<6.25 µM
Cc1cn([C@H]2C[C@H](N=[N+]=[N-])[C@@H](CO)O2)c(=O)[nH]c1=O,IIIB BCH-189-resistant (RT M184V),RT-M184V,p24,-,0.03 µM
COc1ccccc1NC(=O)CSc1nnnn1-c1cccc2ccccc12,-,-,p24,-,<10 µM
COc1ccc(S(=O)(=O)N(CC(C)C)C[C@@H](O)[C@H](Cc2ccccc2)NC(=O)O[C@H]2CCO[C@H]3OCC[C@H]32)cc1,NL4-3,-,p24 / luminescence,-,0.0044 µM
Cc1cc(C)c(-n2nnnc2SCC(=O)Nc2ccc([N+](=O)[O-])cc2Cl)c(C)c1,-,-,p24,10% FBS,<0.078 µM
Cc1cc(C)c(-n2nnnc2SCC(=O)Nc2cccc3ncccc23)c(C)c1,-,-,p24,-,<10 µM
CN[C@H]1CO[C@@H]2OCC[C@H](OC(=O)N[C@@H](Cc3cccc(OC)c3)[C@H](O)CN(CC(C)C)S(=O)(=O)c3ccc4nc(NC(C)C)sc4c3)[C@@H]21,NL4-3,L10I I54V K20R L24I V32I L33F M36I M46I I54M L63P K70Q V82I I84V L89M,p24 / luminescence,-,0.061 µM
c1ncc(CN2CCCNCCNCCCNCC2)cc1CN1CCCNCCNCCCNCC1,NL4-3,-,cytopathic effect / MTT,-,1 µg/mL

For reference, 5 entries again:

smiles | strain or isolate | changes | read by | conditions | value
O=C(N[C@H]1c2ccccc2OC[C@H]1O)[C@H](Cc1cccnc1)C[C@H](O)CN1CCN(Cc2ccn(-c3cccc(C(F)(F)F)c3)c2)C[C@H]1C(=O)NCC(F)(F)F | NL4-3 WT | - | p24 | - | <0.015 µM
CN[C@H]1CO[C@@H]2OCC[C@H](OC(=O)N[C@@H](Cc3cccc(OC)c3)[C@H](O)CN(CC(C)C)S(=O)(=O)c3ccc4nc(NC(C)C)sc4c3)[C@@H]21 | NL4-3 | L10I I54V K20R L24I V32I L33F M36I M46I I54M L63P K70Q V82I I84V L89M | p24 / luminescence | - | 0.061 µM
Cc1cc(C)c(-n2nnnc2SCC(=O)Nc2ccc(C(N)=O)cc2Cl)c(C)c1 | - | - | p24 | - | <10 µM
O=C(N[C@H]1c2ccccc2OC[C@H]1O)[C@H](Cc1cccnc1)C[C@H](O)CN1CCN(Cc2ccn(-c3ccc(F)cc3)c2)C[C@H]1C(=O)NCC(F)(F)F | NL4-3 WT | - | p24 | - | <0.015 µM
Cc1ccnc2c1NC(=O)c1cccnc1N2C1CC1 | - | RT-K103N K100I | cytopathic effect / MTT | - | >10 µM

ECn: concentration that inhibits the pathogen or its effect by n%. Lines come from different laboratories, so protocols vary.